The text below walks through data of paper PMC5691071.

By UniProt entry, the sequences of proteins in these tests, tags left out. Residues count along the entry.
UniProt O42275, 24-633: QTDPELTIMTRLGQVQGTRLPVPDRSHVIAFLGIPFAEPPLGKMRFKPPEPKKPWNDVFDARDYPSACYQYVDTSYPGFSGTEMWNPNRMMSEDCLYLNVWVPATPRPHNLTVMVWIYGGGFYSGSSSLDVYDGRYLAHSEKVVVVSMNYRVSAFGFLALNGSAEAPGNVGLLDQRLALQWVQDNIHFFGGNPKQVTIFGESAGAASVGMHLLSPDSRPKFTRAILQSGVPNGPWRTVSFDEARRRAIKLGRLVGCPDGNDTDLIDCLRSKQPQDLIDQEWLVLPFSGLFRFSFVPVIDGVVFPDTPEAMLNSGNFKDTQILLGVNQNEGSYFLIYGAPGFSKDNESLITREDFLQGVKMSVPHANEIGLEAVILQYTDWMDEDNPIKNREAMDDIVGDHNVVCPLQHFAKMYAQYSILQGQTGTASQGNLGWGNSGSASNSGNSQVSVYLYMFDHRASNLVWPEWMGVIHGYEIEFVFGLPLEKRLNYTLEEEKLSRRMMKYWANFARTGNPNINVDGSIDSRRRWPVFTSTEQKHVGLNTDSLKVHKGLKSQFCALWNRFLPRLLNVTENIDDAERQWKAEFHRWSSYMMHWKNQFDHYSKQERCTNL

The data set addresses acetylcholinesterase (AChE) (UniProt O42275). The data set can be described thus: cited. To be noted: Nanopore: 100 mM KCl Tris-EDTA, pH 8, 45 min incubation; commercial protein; single-stranded DNA.

For at least one entry, the source does not settle the construct or the ends of the probe.

In the case of “GGTTGACTGTAGCTCTGGCAGACGTAGTGTGAAGGTACC [AChE aptamer 39-mer]”, the Kd amounted to 0.014 nM.

The term Kd denotes the constant that tells how readily two partners part at equilibrium. Read a low Kd as higher affinity.
